# Data published in article PMC4232046.
# For some assays here: Negatives hold for the conditions tested. At least one verdict was read from the data and is not stated in words by the source. For some assays here: Where a protein sequence is shown, tags need not be part of it. For some assays here: Construct, isoform or probe ends are uncertain for at least one entry.
# Key:
# Assay in all cases: SPR
# [1] = test system: CBC (HapB/HapC/HapE core CCAAT-binding complex) (Aspergillus fumigatus); settings: affinity not affected by 3' truncation, Kd only in figure; SPR Biacore T200, 25 C; 10 mM phosphate pH 7.4, 2.7 mM KCl, 137 mM NaCl, 1 mM DTT, 0.005% surfactant P20, 10 ug/ml poly(dI-dC); biotin-DNA on streptavidin CM3 chip; recombinant protein; label: 5' biotin on strand 1
# [2] = target: T1, HapX(24-158) (Aspergillus fumigatus) (UniProt Q4WER3); settings: HapX alone, binding abolished by truncation of 3' submotif; SPR Biacore T200, 25 C; 10 mM phosphate pH 7.4, 2.7 mM KCl, 137 mM NaCl, 1 mM DTT, 0.005% surfactant P20, 10 ug/ml poly(dI-dC); biotin-DNA on streptavidin CM3 chip; recombinant protein; residues 24-158; label: 5' biotin on strand 1
# T1 sequence (looked up): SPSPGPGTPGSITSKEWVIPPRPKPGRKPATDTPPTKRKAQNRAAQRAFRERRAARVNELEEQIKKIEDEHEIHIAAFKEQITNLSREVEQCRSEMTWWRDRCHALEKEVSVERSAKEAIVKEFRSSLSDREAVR
# [3] = test system: CBC (HapB/HapC/HapE core CCAAT-binding complex) + HapX(24-158); settings: HapX on preformed CBC/DNA (CBC itself binds), HapX binding strictly depends on 3' submotif; SPR Biacore T200, 25 C; 10 mM phosphate pH 7.4, 2.7 mM KCl, 137 mM NaCl, 1 mM DTT, 0.005% surfactant P20, 10 ug/ml poly(dI-dC); biotin-DNA on streptavidin CM3 chip; recombinant protein; label: 5' biotin on strand 1
Sequence,binding result [1],binding result [2],binding result [3]
AAATCCACCAATCAACGCCTCCGTGATTGTCAGC (double strand) [cccAp-369-34],binds,,
AAATCCACCAATCAACGCCTCCGTGATTGTCA (double strand) [cccAp-369-32],binds,,
AAATCCACCAATCAACGCCTCCGTGATT (double strand) [cccAp-369-28],binds,no binding,no binding
